Compound potency records, mixed from different reports. Data source: NIAID ChemDB in PubChem.

All rows: tests in culture; species: HIV-1; read by: cytopathic effect; read-out: inhibition

Blank or dashed fields: not listed here. Neighbouring rows are from separate reports. Inhibition is in % at the dose shown (toxicity tests: loss of growth or viability).

structure | cells | dose | setting | strain | value
O=c1[nH]c(=O)n(COCCO)cc1Cc1ccccc1 | MT-4 | 100 µM |  | IIIB | 16%
NC(=O)c1[nH]nc([C@@H]2O[C@H](CO)[C@@H](O)[C@H]2O)c1O | ATH8 | 100 µg/mL |  | LAV Laboratory strain | 0%
O=C(O)/C=C/c1ccc(O)c(O)c1 | MT-2 | 80 µg/mL |  | LAI | 12%
C[C@@H]1[C@H](O)[C@@H](C)/C=C/C=C/C=C/C=C/C=C/C=C/C=C/[C@H](O[C@@H]2O[C@H](C)[C@@H](O)[C@H](N)[C@@H]2O)CC2O[C@](O)(CC(O)C(O)CCC(O)CC(O)CC(O)CC(=O)O[C@H]1C)CC(O)C2C(=O)O.O=S(=O)(O)O | MT-4 | 7.8 µg/mL |  | LAV | 100%
CCOC(=O)c1c(C(C)C)c(C#N)c(=N)n2ccccc12 | MT-2 | 8 µM |  |  | 85%
Nc1ncnc2c1ccn2[C@@H]1O[C@H](CO)[C@@H](O)[C@H]1O | ATH8 | 5 µg/mL |  | LAV Laboratory strain | 0%
O=C(O)c1cc(C(O)(c2ccc(O)c(C(=O)O)c2)c2ccc(O)c(C(=O)O)c2)ccc1O | CEM | 167 µg/mL |  | RF | 89%
O=CO[C@H]1C[C@H](n2ccc(=O)[nH]c2=O)O[C@@H]1CO | CEM | 100 µM |  |  | 15%
COC(=O)[C@H](C)NP(=O)(OC[C@@H]1O[C@H](n2ccc(N)nc2=O)CS1)Oc1ccccc1 | CEM | 10 µM | 7 d | IIIB | 100%
Cc1cn([C@H]2C[C@H](N=[N+]=[N-])[C@@H](CO)O2)c(=O)[nH]c1=O | MT-4 | 0.22 µM |  |  | 70%
O=C(CCC(=O)Nc1ccn([C@H]2CC[C@@H](CO)O2)c(=O)n1)Nc1ccn([C@H]2CC[C@@H](CO)O2)c(=O)n1 |  | 1 µM |  |  | 90%
Cc1cc(-c2ccc(N=Nc3ccc4c(S(=O)(=O)O)cc(S(=O)(=O)O)c(N)c4c3O)c(C)c2)ccc1N=Nc1ccc2c(S(=O)(=O)O)cc(S(=O)(=O)O)c(N)c2c1O | ATH8 | 100 µg/mL |  | LAV Laboratory strain | 100%
CSc1nc(N)nc2c1ncn2[C@H]1C[C@H](N=[N+]=[N-])[C@@H](CO)O1 | MT-4 | 200 µM |  | IIIB | 8%
Nc1ncnc2c1ncn2[C@@H]1C[C@](F)(CO)[C@H]1CO | MT-4 | 10 µM |  | IIIB | 80%
CC(C)[C@H](NS(=O)(=O)N(C)Cc1ccccn1)C(=O)N[C@@H](Cc1ccccc1)[C@H](O)[C@H](O)[C@H](Cc1ccccc1)NC(=O)[C@@H](NS(=O)(=O)N(C)Cc1ccccn1)C(C)C | MT-4 | 100 µM |  | IIIB | 0%
Nc1ncnc2c1ncn2[C@H]1CC[C@@H](CO)O1 | ATH8 | 2.5 µM |  |  | 26.9%
[N-]=[N+]=N[C@H]1C[C@H](n2cnc3c(=S)nc(N)[nH]c32)O[C@@H]1CO | MT-4 | 32 µM |  | IIIB | 20%

The first 2 rows once more:

| structure | cells | dose | setting | strain | value |
|---|---|---|---|---|---|
| O=c1[nH]c(=O)n(COCCO)cc1Cc1ccccc1 | MT-4 | 100 µM |  | IIIB | 16% |
| NC(=O)c1[nH]nc([C@@H]2O[C@H](CO)[C@@H](O)[C@H]2O)c1O | ATH8 | 100 µg/mL |  | LAV Laboratory strain | 0% |